The values below come from patent publication US8466177B2 (priority 2007, dated 2013).

The term EC50 denotes the concentration giving half of the maximal effect.

For this assay, the system named is A/NWS/G70C (H1N9). The settings on record: plaque reduction.

The compound `O=C1/C(=C/c2ccc(-c3ccc(F)cc3)o2)SC(=S)N1C1CCCCC1` [A1, (Z)-3-Cyclohexyl-5-{[5-(4-fluorophenyl)furan-2-yl]-methylene}-2-thioxothiazolidin-4-one] displayed a 50% effective concentration (EC50) of 1 nM.
